Results of unrelated studies side by side (data: NIAID ChemDB).

Shared fields: tests in culture; organism: HIV-1; read by: cytopathic effect / XTT; endpoint: EC50

ECn is the concentration giving n% inhibition of infection, replication or growth.

{"smiles": "O=S1(c2ccc(Cl)cc2)=NC(=S)Nc2ccc(Cl)cc21", "strain or isolate": "IIIB", "cell line": "CEM + CEM-SS", "value": "0.71 µM"}
{"smiles": "Cc1cn([C@H]2C[C@H](N=[N+]=[N-])[C@@H](CO)O2)c(=O)[nH]c1=O", "cell line": "CEM + CME-SS", "value": "0.018 µM"}
{"smiles": "O=C(O)c1cn2c3c(c(N4CCN(c5ccccn5)CC4)c(F)cc3c1=O)OCC2CF", "strain or isolate": "IIIB", "cell line": "MT-4", "value": "6.1 µg/mL"}
{"smiles": "CC(C)(C)NC(=O)c1c(C[C@@H](O)[C@H](Cc2ccccc2)NC(=O)[C@H](CC(N)=O)NC(=O)c2ccc3ccccc3n2)ccc2ccccc12", "strain or isolate": "RF", "cell line": "CEM + CEM-SS", "value": "0.19 µM"}
{"smiles": "C[C@H](Cn1cnc2c(N)ncnc21)OCP(=O)(O)O", "strain or isolate": "Site-directed mutant", "mutations": "RT-K65R M184V", "cell line": "MT-2", "value": "7.56 µM"}
{"smiles": "Cc1cn([C@H]2C[C@H](N=[N+]=[N-])[C@@H](CO)O2)c(=O)[nH]c1=O", "strain or isolate": "G762-3", "cell line": "CEM + CEM-SS", "value": "2.6 µM"}
{"smiles": "Cc1cn([C@H]2C[C@H](N=[N+]=[N-])[C@@H](CO)O2)c(=O)[nH]c1=O", "strain or isolate": "G", "cell line": "CEM + CEM-SS", "value": "0.0036 µM"}
{"smiles": "Cn1cc(N)cc1C(=O)Nc1cc(C(=O)Nc2ccc3cc(S(=O)(=O)O)cc(S(=O)(=O)O)c3c2)n(C)c1", "strain or isolate": "BaL", "cell line": "PBMC", "value": "1.1 µM"}
{"smiles": "Cc1cn([C@H]2C[C@H](N=[N+]=[N-])[C@@H](CO)O2)c(=O)[nH]c1=O", "strain or isolate": "LAV", "cell line": "CEM + CEM-SS", "value": "0.004 µM"}
{"smiles": "CCc1cc(NCc2nc3c(Cl)ccc(Cl)c3o2)c(=O)[nH]c1C", "strain or isolate": "UC38-R(RT-Y181C", "mutations": "RT-Y181C", "cell line": "CEM + CEM-SS", "value": "13.8 µM"}
{"smiles": "Cc1ccnc2c1NC(=O)c1cccnc1N2C1CC1", "strain or isolate": "NL4-3(RT-4XAZT+Y181C)", "mutations": "RT-D67N K70R Y181C T215Y K219Q", "cell line": "CEM + CEM-SS", "value": "0.8 µM"}
{"smiles": "C[C@@]1(Br)C(=O)NC(=O)N([C@H]2C=C[C@@H](CO)O2)[C@H]1N=[N+]=[N-]", "strain or isolate": "RF", "cell line": "CEM", "value": "0.918 µM"}
{"smiles": "NNC(=O)c1cc(Cl)ccc1NC(=O)C12CC3CC(CC(C3)C1)C2", "cell line": "CEM", "value": ">15.1 µM"}
{"smiles": "C/C=C/CSc1cc(NC(=S)c2ccsc2C)ccc1Cl", "strain or isolate": "Dihydrocostatolide-resistant (RT-L100I)", "mutations": "RT-L100I", "cell line": "CEM + CEM-SS", "value": "1 µM"}
{"smiles": "Cc1cn([C@H]2C[C@H](N=[N+]=[N-])[C@@H](COC(=O)C3CN(C)C(=O)N3C)O2)c(=O)[nH]c1=O", "cell line": "CEM + CME-SS", "value": "0.1 µM"}
{"smiles": "O=S1(c2ccccc2)=NC(=S)Nc2ccccc21", "strain or isolate": "RF", "cell line": "MT-2", "value": "0.44 µM"}
{"smiles": "Cc1cn([C@H]2C[C@H](N=[N+]=[N-])[C@@H](COC(=O)CC[C@@H](C)[C@H]3CC[C@H]4[C@@H]5C(=O)C[C@@H]6CC(=O)CC[C@]6(C)[C@H]5CC(=O)[C@]34C)O2)c(=O)[nH]c1=O", "cell line": "CEM + CME-SS", "value": "0.31 µM"}
{"smiles": "Cc1ccnc2c1NC(=O)c1cccnc1N2C1CC1", "strain or isolate": "IIIB", "cell line": "AA5", "value": "0.7 µM"}
{"smiles": "CO[C@@H]1N([C@H]2C=C[C@@H](CO)O2)C(=O)NC(=O)[C@@]1(C)I", "strain or isolate": "RF", "cell line": "CEM", "value": "0.376 µM"}
{"smiles": "Fc1cccc(F)c1C1SCc2nc3ccccc3n21", "strain or isolate": "RF", "cell line": "CEM + CEM-SS", "value": "1.22 µM"}
{"smiles": "CCc1c(Sc2ccccn2)n(COCc2ccccc2)c(=O)[nH]c1=O", "strain or isolate": "NL4-3", "mutations": "RT-V106I", "cell line": "CEM + CEM-SS", "value": "0.92 µM"}
{"smiles": "Cc1cn([C@H]2C[C@H](N=[N+]=[N-])[C@@H](CO)O2)c(=O)[nH]c1=O", "strain or isolate": "SK1", "cell line": "CEM + CEM-SS", "value": "0.005 µM"}
{"smiles": "CCO[C@@H]1N([C@H]2C=C[C@@H](CO)O2)C(=O)NC(=O)[C@@]1(C)Br", "strain or isolate": "RF", "cell line": "CEM", "value": ">14 µM"}
{"smiles": "Nc1nc2c(ncn2[C@H]2CO[C@@H](CO)O2)c(=O)[nH]1", "mutations": "RT-L74V", "cell line": "MT-2", "value": "7.5 µM"}
{"smiles": "Cc1cn([C@H]2C[C@H](N=[N+]=[N-])[C@@H](CO)O2)c(=O)[nH]c1=O", "strain or isolate": "TP1", "cell line": "CEM + CEM-SS", "value": "0.005 µM"}
{"smiles": "CO[C@@H]1N([C@H]2C=C[C@@H](CO)O2)C(=O)NC(=O)[C@@]1(C)Cl", "strain or isolate": "RF", "cell line": "CEM", "value": "375 µM"}
{"smiles": "Cc1occc1C(=S)Nc1ccc(Cl)c(/C=N/OC(C)(C)C)c1", "strain or isolate": "IIIB", "cell line": "CEM + CEM-SS", "value": "0.4 µM"}
{"smiles": "Nc1nc(N)c2ncn([C@H]3CO[C@@H](CO)O3)c2n1", "mutations": "RT-F116Y Q151M T215Y", "cell line": "MT-2", "value": "160 µM"}
{"smiles": "CCCc1cc(=O)oc2c3c(c4c(c12)OC(C)(C)C=C4)O[C@@H](C)[C@H](C)[C@@H]3O", "strain or isolate": "NL4-3", "mutations": "RT-K103N", "cell line": "CEM + CEM-SS", "value": "1.2 µM"}
{"smiles": "Cc1ccc(C(=O)NC(C)(C)C)c(C[C@@H](O)[C@H](Cc2ccccc2)NC(=O)[C@H](CC(N)=O)NC(=O)c2ccc3ccccc3n2)c1", "strain or isolate": "RF", "cell line": "CEM + CEM-SS", "value": "0.61 µM"}
{"smiles": "O=c1oc(C23CC4CC(CC(C4)C2)C3)nc2ccc(Br)cc12", "cell line": "CEM", "value": "50.3 µM"}
{"smiles": "Cc1cn([C@H]2C[C@H](N=[N+]=[N-])[C@@H](COC(=O)C3CCC(=O)N3)O2)c(=O)[nH]c1=O", "cell line": "CEM + CME-SS", "value": "0.018 µM"}
{"smiles": "CO[C@H]1N([C@H]2C=C[C@@H](CO)O2)C(=O)NC(=O)[C@]1(C)Br", "strain or isolate": "RF", "cell line": "CEM", "value": "54.6 µM"}
{"smiles": "Cc1ccnc2c1NC(=O)c1cccnc1N2C1CC1", "strain or isolate": "IIIB", "mutations": "RT-L100I", "cell line": "CEM + CEM-SS", "value": "0.14 µM"}
{"smiles": "Cc1cn([C@H]2C[C@H](N=[N+]=[N-])[C@@H](CO)O2)c(=O)[nH]c1=O", "strain or isolate": "Site-directed mutant", "mutations": "RT-K65R", "cell line": "MT-2", "value": "0.182 µM"}
{"smiles": "O=C(O)c1cn(C2CC2)c2cc(N3CCNCC3)c(F)cc2c1=O", "strain or isolate": "IIIB", "cell line": "MT-4", "value": ">50 µg/mL"}
{"smiles": "COC1(C)C(=O)NC(=O)N([C@H]2C=C[C@@H](CO)O2)[C@@H]1O", "strain or isolate": "RF", "cell line": "CEM", "value": "7.82 µM"}
{"smiles": "NC(=O)c1ncn([C@@H]2O[C@H](CO)[C@@H](O)[C@H]2O)n1", "strain or isolate": "LAI", "cell line": "MT-2", "value": ">100 µM"}
{"smiles": "Cc1ccc2nc(C34CC5CC(CC(C5)C3)C4)oc(=O)c2c1", "cell line": "CEM", "value": ">80 µM"}
{"smiles": "CCc1c(Sc2ccccn2)n(COCc2ccccc2)c(=O)[nH]c1=O", "strain or isolate": "IIIB", "cell line": "CEM + CEM-SS", "value": "0.02 µM"}
{"smiles": "COc1cc(NC(=O)C23CC4CC(CC(C4)C2)C3)c(C(=O)NN)cc1OC", "cell line": "CEM", "value": ">40.5 µM"}
{"smiles": "Cc1cn([C@H]2C[C@H](N=[N+]=[N-])[C@@H](CO)O2)c(=O)[nH]c1=O", "strain or isolate": "4xAZT(RT-D67N K70R T215Y K219Q)", "mutations": "RT-D67N K70R T215Y K219Q", "cell line": "CEM + CEM-SS", "value": "0.82 µM"}

For reference, 4 entries again:

{"smiles": "Cc1ccc2nc(C34CC5CC(CC(C5)C3)C4)oc(=O)c2c1", "cell line": "CEM", "value": ">80 µM"}
{"smiles": "Cc1ccc(C(=O)NC(C)(C)C)c(C[C@@H](O)[C@H](Cc2ccccc2)NC(=O)[C@H](CC(N)=O)NC(=O)c2ccc3ccccc3n2)c1", "strain or isolate": "RF", "cell line": "CEM + CEM-SS", "value": "0.61 µM"}
{"smiles": "Cc1cn([C@H]2C[C@H](N=[N+]=[N-])[C@@H](COC(=O)C3CN(C)C(=O)N3C)O2)c(=O)[nH]c1=O", "cell line": "CEM + CME-SS", "value": "0.1 µM"}
{"smiles": "NC(=O)c1ncn([C@@H]2O[C@H](CO)[C@@H](O)[C@H]2O)n1", "strain or isolate": "LAI", "cell line": "MT-2", "value": ">100 µM"}

Neighbouring rows are from separate reports.